Results of unrelated studies side by side (data: NIAID ChemDB).

Common to all: tests in culture; agent: HIV-1; read by: cytopathic effect / trypan blue; endpoint: EC50

Blank or dashed fields: not listed here.

structure,cells,strain,result
CC(=O)O[C@H]1C[C@@]2(C)[C@@H](C[C@@H](O)[C@H]3[C@@]4(C)CC[C@@H](O)[C@@H](C)[C@@H]4CC[C@@]32C)/C1=C(\CCC=C(C)C)C(=O)O,MT-4,,>20 µM
Nc1nc2c(ncn2CC#CCO)c(=O)[nH]1,ATH8,IIIB,>500 µM
Nc1nc2c(ncn2[C@H]2CC[C@@H](CO)O2)c(=O)[nH]1,ATH8,IIIB,<10 µM
OC[C@@H]1CC[C@H](n2cnc3c(Br)ncnc32)O1,ATH8,IIIB,<20 µM
Nc1nc2c(ncn2[C@H]2CC[C@@H](CO)O2)c(=O)[nH]1,ATH8,IIIB,<5 µM
CS(=O)(=O)c1ccc(OP(=O)(OC[C@@H]2CC[C@H](n3cnc4c(N)ncnc43)O2)OC[C@@H]2CC[C@H](n3cnc4c(N)ncnc43)O2)cc1,MT-4,IIIB,8.4 µM
Nc1ccn(CC#CCO)c(=O)n1,ATH8,IIIB,>100 µM
Cc1cn([C@H]2C[C@H](N=[N+]=[N-])[C@@H](CO)O2)c(=O)[nH]c1=O,MT-2,IIIB/LAI,0.004 µM
Nc1ccn(C=C=CCO)c(=O)n1,ATH8,IIIB,<0.2 µM
Cc1cn([C@@H]2O[C@@H](CO[Si](C)(C)C(C)(C)C)C3(OS(=O)(=O)C=C3N)[C@@H]2O[Si](C)(C)C(C)(C)C)c(=O)[nH]c1=O,MT-4,IIIB,>100 µg/mL
O=c1[nH]cnc2c1ncn2[C@@H]1C[C@H](CO)[C@H]1CO,ATH8,IIIB,>500 µM
Nc1nc2c(ncn2[C@H]2C[C@H](O)[C@@H](CO)O2)c(=O)[nH]1,MT-4,,>500 µM
Nc1ccn([C@H]2C=C[C@@H](CO)O2)c(=O)n1,ATH8,IIIB,0.3 µM
Cc1cn([C@H]2C[C@H](N=[N+]=[N-])[C@@H](CO)O2)c(=O)[nH]c1=O,ATH8,IIIB,<1 µM
Cc1cn([C@H]2C[C@H](N=[N+]=[N-])[C@@H](CO)O2)c(=O)[nH]c1=O,MT-2,IIIB,<2 µM
Nc1ncnc2c1ncn2CCCCO,ATH8,IIIB,>1000 µM
NC(=O)c1cn([C@H]2CC[C@@H](CO)O2)c2ncnc(N)c12,MT-4,IIIB,64 µM
CC(C)[C@H](NC(=O)N(C)Cc1ccccn1)C(=O)N[C@@H](Cc1ccccc1)[C@H](O)[C@@H](O)[C@H](Cc1ccccc1)NC(=O)[C@@H](NC(=O)N(C)Cc1ccccn1)C(C)C,ATH8,IIIB,<0.9 µM
Cc1cn([C@H]2CC[C@@H](CO)O2)c(=O)[nH]c1=O,MT-4,IIIB,1.1 µM
Nc1ncnc2c1ccn2[C@H]1C=C[C@@H](CO)O1,MT-4,IIIB,205 µM
Cc1cn([C@@H]2O[C@H](CCC(C)C)C3(OS(=O)(=O)C=C3N)[C@H]2OC(=O)c2ccccc2)c(=O)[nH]c1=O,MT-4,IIIB,>4 µg/mL
Nc1ncnc2c1ncn2C=C=CCO,ATH8,IIIB,~10 µM
Nc1ccn([C@H]2C=C[C@@H](CO)O2)c(=O)n1,MT-4,IIIB,0.6 µM
Cc1cn([C@H]2C[C@H](N=[N+]=[N-])[C@@H](CO)O2)c(=O)[nH]c1=O,MT-4,KK-1,0.003 µM
Nc1ncnc2c1ncn2[C@H]1CC[C@@H](CO)O1,MT-4,,9.2 µM
Cc1cn([C@@H]2O[C@@H](COC(=O)c3ccccc3)C3(OS(=O)(=O)C=C3N)C2O[Si](C)(C)C(C)(C)C)c(=O)[nH]c1=O,MT-4,IIIB,>100 µg/mL
Cc1cn([C@H]2C[C@H](N=[N+]=[N-])[C@@H](COP(=O)(O)CP(=O)(O)O)O2)c(=O)[nH]c1=O,ATH8,IIIB,200 µM
NC(=O)c1ncn([C@@H]2O[C@H](CO)[C@@H](O)[C@H]2O)n1,MT-4,,>20 µM
Nc1ncnc2c1ncn2[C@@H]1O[C@H](CO)[C@H]1CO,ATH8,IIIB,<100 µM
Nc1ncnc2c1ncn2[C@H]1C[C@@H](O)[C@@H](CO)O1,MT-4,,>500 µM
Nc1nc2c(ncn2[C@H]2CC[C@@H](CO)O2)c(=O)[nH]1,ATH8,IIIB,<10 µM
Cc1cn([C@@H]2O[C@H](CO[Si](C)(C)C(C)(C)C)[C@@]3(OS(=O)(=O)C=C3N)[C@H]2O[Si](C)(C)C(C)(C)C)c(=O)[nH]c1=O,MT-4,IIIB,0.03 µg/mL
Cc1cn([C@H]2CC[C@@H](CO)O2)c(=O)[nH]c1=O,ATH8,IIIB,101 µM
Nc1nccc2c1ncn2[C@@H]1C[C@H](CO)[C@@H](O)[C@H]1O,MT-4,IIIB,>1.1 µg/mL
Nc1nc2c(ncn2[C@H]2CC[C@@H](CO)O2)c(=O)[nH]1,ATH8,IIIB,<100 µM
O=c1[nH]cnc2c1ncn2[C@H]1CC[C@@H](CO)O1,ATH8,IIIB,<10 µM
Nc1nccc2c1ncn2[C@@H]1C[C@H](CO)[C@@H](O)[C@H]1O,MT-4,,>500 µM
NC(=O)c1cn([C@H]2C=C[C@@H](CO)O2)c2ncnc(N)c12,MT-4,IIIB,>125 µM
Cc1cn([C@H]2C[C@H](F)[C@@H](CO)O2)c(=O)[nH]c1=O,MT-4,IIIB,0.003 µM
Nc1ncnc2c1ncn2[C@@H]1C=C(CO)[C@@H](O)[C@H]1O,MT-4,IIIB,>0.016 µg/mL
OC[C@@H]1CC[C@H](n2cnc3c(=S)nc[nH]c32)O1,ATH8,IIIB,>20 µM
Cc1cn([C@H]2C[C@@H](N=[N+]=[N-])[C@@H](CO)O2)c(=O)[nH]c1=O,ATH8,IIIB,>200 µM
Nc1ncnc2c1ncn2CCOCP(=O)(O)O,MT-4,,2 µM
CS(=O)(=O)c1ccc(OP(=O)(OC[C@@H]2C=C[C@H](n3ccc(=O)[nH]c3=O)O2)OC[C@@H]2C=C[C@H](n3ccc(=O)[nH]c3=O)O2)cc1,MT-4,IIIB,>250 µM
Cc1cn([C@H]2C[C@H](N=[N+]=[N-])[C@@H](COP(=O)(O)O)O2)c(=O)[nH]c1=O,ATH8,IIIB,14 µM
Nc1ncnc2c1ncn2CC#CCCl,ATH8,IIIB,>100 µM

For reference, 5 entries again:

structure,cells,strain,result
Cc1cn([C@H]2C[C@H](N=[N+]=[N-])[C@@H](CO)O2)c(=O)[nH]c1=O,MT-2,IIIB/LAI,0.004 µM
Nc1ncnc2c1ncn2[C@H]1C[C@@H](O)[C@@H](CO)O1,MT-4,,>500 µM
O=c1[nH]cnc2c1ncn2[C@@H]1C[C@H](CO)[C@H]1CO,ATH8,IIIB,>500 µM
Nc1ccn(CC#CCO)c(=O)n1,ATH8,IIIB,>100 µM
Cc1cn([C@H]2CC[C@@H](CO)O2)c(=O)[nH]c1=O,MT-4,IIIB,1.1 µM

ECn: concentration that inhibits the pathogen or its effect by n%. Conditions beyond the fields shown may differ between rows.